# Assay results as given in the supplement of paper PMC12637763.
# Some of the results follow. Env chains of viruses from a treatment-interruption trial, translated from the printed DNA. IC50 / IC80 of two broadly neutralizing antibodies; lower = more sensitive virus; >50 µg/ml means not reached and <0.001 µg/ml is below the lowest dose. No active / inactive call.
# B1: HIV-1 Env, rebound clone, antibody arm (protein)
# chain: MRAKGIRKNCQDLLKGGILLLGILMICSAAGNLWVTVYYGVPVWKDATTTLFCASDAKGYSKEAHNVWATHACVPTDPDPREIVMGNVTENFNMWKNDMVDQMHEDIISLWDQSLKPCVKLTPLCVTLNCTNLNITNLNNTNSNTSDTNNNTSSENGSEEMKNCSFNVTTIKGKYQKEYAVLYKLDLVPIDNNDNTSYMLINCNTSVITQACPKISFEPIPIHYCAPAGFAILKCNNKTFNGTGPCTNVSSVQCTHGIRPVVSTQLLLNGSLAEEEVVIRSENFTDNAKTIIVQLKDPIQINCTRPNNNTRKSIHIGPGRAFYATGQIIGNIRQAYCNISKEQWNEALNQTVRKLREQFGNKTMIFNQSSGGDPEIVMHTFNCGGEFFYCNTTQLFNSTWYDTTNSTDSNNNTIKLPCRIKQVINRWQEVGKAMYAPPISGPIRCSSNITGLLLVRDGGNNNSSNSSETFRPGGGNMKDNWRSELYKYKVVKIEPLGVAPTKAKRRVVQRERRAVTLGAMFLGFLGTAGSTMGAASLTLTVQARQLLSGIVQQQSNLLKAIEVHQHMLQLTVWGIKQLQARVLAVERYLKDQQLLGIWGCSGKLICTTTVPWNASWSKKNLSEIWDNMTWIEWEREIQNYTEEIYSLIEKSQNQQAKNEQELLELDKWANLWNWFDITNWLWYIKIFIMIVGGLIGLRIVFTVLSIVNRVRQGYSPLSFQTRLPTQRGPDRPGGTEEEGGERDRDTSRPLVDGFLAIIWVDLRSLFLFSYHRLRDLLLIVTRIVETLGRRGWELLKYWWNLLQYWSQELKNSAISLLNATAIAVAEGTDRVIELIQRAGRAIIHIPRRIRQGLESALL
# B2: HIV-1 Env, rebound clone, antibody arm (protein)
# chain: MRAKGIRKNCQDLLKGGILLLGILMICSAAGNLWVTVYYGVPVWKDATTTLFCASDAKGYSKEAHNVWATHACVPTDPDPREIVMGNVTENFNMWKNDMVDQMHEDIISLWDQSLKPCVKLTPLCVTLNCTNLNITNLNNTNSNTSDTNNNTSSENGSEEMKNCSFNVTTIKGKYQKEYAVLYKLDLVPIDNNDNTSYMLINCNTSVITQACPKISFEPIPIHYCAPAGFAILKCNNKTFNGTGPCTNVSSVQCTHGIRPVVSTQLLLNGSLAEEEVVIRSENFTDNAKTIIVQLKDPIQINCTRPNNNTRKSIHIGPGRAFYATGQIIGNIRQAYCNISKEQWNEALNQTVRKLREQFGNKTMIFNQSSGGDPEIVMHTFNCGGEFFYCNTTQLFNSTWYDTTNSTESNNNTIKLPCRIKQVINRWQEVGKAMYAPPISGPIRCSSNITGLLLVRDGGNNNSSNSSETFRPGGGNMKDNWRSELYKYKVVKIEPLGVAPTKAKRRVVQRERRAVTLGAMFLGFLGTAGSTMGAASLTLTVQARQLLSGIVQQQSNLLRAIEVHQHMLQLTVWGIKQLQARVLAVERYLKDQQLLGIWGCSGKLICTTTVPWNASWSKKNLSEIWDNMTWIEWEREIQNYTEEIYSLIEKSQNQQAKNEQELLELDKWANLWNWFDITNWLWYIKIFIMIVGGLIGLRIVFTVLSIVNRVRQGYSPLSFQTRLPTQRGPDRPGGTEEEGGERDRDTSRPLVDGFLAIIWVDLRSLFLFSYHRLRDLLLIVTRIVETLGRRGWELLKYWWNLLQYWSQELKNSAISLLNATAIAVAEGTDRVIELIQRAGRAIIHIPRRIRQGLESALL
# B3: HIV-1 Env, rebound clone, antibody arm (protein)
# chain: MRAKGIRKNCQDLLKGGILLLGILMICSAAGNLWVTVYYGVPVWKDATTTLFCASDAKGYSKEAHNVWATHACVPTDPDPREIVMGNVTENFNMWKNDMVDQMHEDIISLWDQSLKPCVKLTPLCVTLNCTNLNITNLNNTNSNTSDTNNNTSSENGSEEMKNCSFNVTTIKGKYQKEYAVLYKLDLVPIDNNDNTSYMLINCNTSVITQACPKISFEPIPIHYCAPAGFAILKCNNKTFNGTGPCTNVSSVQCTHGIRPVVSTQLLLNGSLAEEEVVIRSENFTDNAKTIIVQLKDPIQINCTRPNNNTRKSIHIGPGRAFYATGQIIGNIRQAYCNISKEQWNEALNQTVRKLREQFGNKTMIFNQSSGGDPEIVMHTFNCGGEFFYCNTTQLFNSTWYDTTNSTDSNNNTIKLPCRIKQVINRWQEVGKAVYAPPISGPIRCSSNITGLLLVRDGGNNNSSNSSETFRPGGGNMKDNWRSELYKYKVVKIEPLGVAPTKAKRRVVQRERRAVTLGAMFLGFLGTAGSTMGAASLTLTVQARQLLSGIVQQQSNLLRAIEVHQHMLQLTVWGIKQLQARVLAVERYLKDQQLLGIWGCSGKLICTTTVPWNASWSKKNLSEIWDNMTWIEWEREIQNYTEEIYSLIEKSQNQQAKNEQELLELDKWANLWNWFDITNWLWYIKIFIMIVGGLIGLRIVFTVLSIVNRVRQGYSPLSFQTRLPTQRGPDRPGGTEEEGGERDRDTSRPLVDGFLAIIWVDLRSLFLFSYHRLRDLLLIVTRIVETLGRRGWELLKYWWNLLQYWSQELKNSAISLLNATAIAVAEGTDRVIELIQRAGRAIIHIPRRIRQGLESALL
# B4: HIV-1 Env, rebound clone, antibody arm (protein)
# chain: MRAKGIRKNCQDLLKGGILLLGILMICSAAGNLWVTVYYGVPVWKDATTTLFCASDAKGYSKEAHNVWATHACVPTDPDPREIVMGNVTENFNMWKNDMVDQMHEDIISLWDQSLKPCVKLTPLCVTLNCTNLNITNLNNTNSNTSDTNNNTSSENGSEEMKNCSFNVTTIKGKYQKEYAVLYKLDLAPIDNNDNTSYMLINCNTSVITQACPKISFEPIPIHYCAPAGFAILKCNNKTFNGTGPCTNVSSVQCTHGIRPVVSTQLLLNGSLAEEEVVIRSENFTDNAKTIIVQLKDPIQINCTRPNNNTRKSIHIGPGRAFYATGQIIGNIRQAYCNISKEQWNEALNQTVRKLREQFGNKTMIFNQSSGGDPEIVMHTFNCGGEFFYCNTTQLFNSTWYDTTNSTDSNNNTIKLPCRIKQVINRWQEVGKAMYAPPISGPIRCSSNITGLLLVRDGGNNNSSNSSETFRPGGGNMKDNWRSELYKYKVVKIEPLGVAPTKAKRRVVQRERRAVTLGAMFLGFLGTAGSTMGAASLTLTVQARQLLSGIVQQQSNLLRAIEVHQHMLQLTVWGIKQLQARVLAVERYLKDQQLLGIWGCSGKLICTTTVPWNASWSKKNLSEIWDNMTWIEWEREIQNYTEEIYSLIEKSQNQQAKNEQELLELDKWANLWNWFDITNWLWYIKIFIMIVGGLIGLRIVFTVLSIVNRVRQGYSPLSFQTRLPTQRGPDRPGGTEEEGGERDRDTSRPLVDGFLAIIWVDLRSLFLFSYHRLRDLLLIVTRIVETLGRRGWELLKYWWNLLQYWSQELKNSAISLLNATAIAVAEGTDRVIELIQRAGRAIIHIPRRIRQGLESALL
# B5: HIV-1 Env, rebound clone, antibody arm (protein)
# chain: MKVRGMKRNYQHLWGWGTMLLFWMIIMCKAAGNLWVTVYYGVPVWRDAETTLFCASDAKAYDKEVHNVWATHACVPTDPNPQEVRLENVTENFNMWENNMVEQMQTDIISLWDQSLKPCVKLTPLCVTLECTEPKLNSSTSNNSLSSTSNNSQYEEMKNCSFNMTTELRDKQKKVYSLFYKLDIVETDNNSSRYRLINCNTSTLTQACPKVTFEPIPIYYCAPAGFAILKCNDPQFNGTGPCTNVSTVQCTHGIKPVVSTQLLLNGSLAKEQVMIRSKNITDNSKTIIVQLKKPVNITCIRPGNNTRTSIRIGPGQAFYATGEITGDIRKAHCNVSRAEWNRTLQEISTQLQGYFNNKTIIFKNSSGGDLEVTTHSFNCGGEFFYCNTTKLFNSTWYGNETVINGTEASENITLQCRIKQIINMWQRVGQAMYAPPIRGEIRCESNITGLLLTRDGGGGNSSNNETFRPTGGDMRDNWRSELYKYKVVQVEPIGIAPTPAKRRVVEREKRAVGLGAAFLGFLGAAGSTMGAASLTLTVQARQLLSGIVQQQSNLLRAIEAQQHLLKLTVWGIKQLQARVLAVERYLRDQQLLGIWGCSGKLICTTAVPWNSSWSNKSYKDIWDNMTWMQWDKEVLNYTSIIYSLLEESQNQQEKNEQDLLALDKWASLWSWFDISKWLWYIKIFIMIVGGLIGLRIVFTVLSIINRVRQGYSPLSLQTLTPHPEEPDRPGRINEEGGEQDKGRSIRLVNGFLALAWDDLRSLCLFSYHRLRDFISIAARTVELLGRSSLKGLRLGWEGLKYLGNLLGYWSRELKNSAINLIDTIAIAVAGWTDRVIEIVQGSCRAIRNIPRRIRQGAEKALQ
# B6: HIV-1 Env, rebound clone, antibody arm (protein)
# chain: MKVRGMKRNYQHLWGWGTMLLFWMIIMCKAAGNLWVTVYYGVPVWRDAETTLFCASDAKAYDKEVHNVWATHACVPTDPNPQEVRLENVTENFNMWENNMVEQMQTDIISLWDQSLKPCVKLTPLCVTLECTEPKLNSSTSNNSLSSTSNNSQYEEMKNCSFNMTTELRDKQEKVYSLFYKLDIVETDNNSSRYRLINCNTSTLTQACPKVTFEPIPIYYCAPAGFAILKCNDPQFNGTGPCTNVSTVQCTHGIKPVVSTQLLLNGSLAKEQVMIRSKNITDNSKTIIVQLKKPVNITCIRPGNNTRTSIRIGPGQAFYATGEITGDIRKAHCNVSRAEWNRTLQEISTQLQGYFNNKTIIFKNSSGGDLEVTTHSFNCGGEFFYCNTTKLFNSTWYGNETVINGTEASENITLQCRIKQIINMWQRVGQAMYAPPIRGEIRCESNITGLLLTRDGGGGNSSNNETFRPTGGDMRDNWRSELYKYKVVQVEPIGIAPTPAKRRVVEREKRAVGLGAAFLGFLGAAGSTMGAASLTLTVQARQLLSGIVQQQSNLLRAIEAQQHLLKLTVWGIKQLQARVLAVERYLRDQQLLGIWGCSGKLICTTAVPWNSSWSNKSYKDIWDNMTWMQWDKEVLNYTSIIYSLLEESQNQQEKNEQDLLALDKWASLWSWFDISKWLWYIKIFIMIVGGLIGLRIVFTVLSIINRVRQGYSPLSLQTLTPHPEEPDRPGRINEEGGEQDKGRSIRLVNGFLALAWDDLRSLCLFSYHRLRDFISIAARTVELLGRSSLKGLRLGWEGLKYLGNLLGYWSRELKNSAINLIDTIAIAVAGWTDRVIEIVQGSCRAIRNIPRRIRQGAEKALQ
# Target: antibody 10-1074
# Assay: neutralization IC50; higher = virus less sensitive to the antibody
# Procedure: (§1)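 Pseudovirus bearing the Env chain mixed with antibody, from 50 µg/ml in fivefold dilutions, on TZM-bl reporter cells, in duplicate.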
row,Binder,neutralization IC50 [µg/mL]
1,B1,> 50
2,B2,> 50
3,B3,> 50
4,B4,> 50
5,B5,0.281
6,B6,0.068

# Target: antibody 3BNC117
# Assay: as above
# Procedure: as §1
row,Binder,neutralization IC50 [µg/mL]
1,B1,0.584
2,B2,0.433
3,B3,0.138
4,B4,0.099
5,B5,0.316
6,B6,0.034

# Target: antibody 10-1074
# Assay: neutralization IC80; higher = virus less sensitive to the antibody
# Procedure: as §1
row,Binder,neutralization IC80 [µg/mL]
1,B1,> 50
2,B2,> 50
3,B3,> 50
4,B4,> 50
5,B5,3.01
6,B6,0.587

# Target: antibody 3BNC117
# Assay: as above
# Procedure: as §1
row,Binder,neutralization IC80 [µg/mL]
1,B1,1.55
2,B2,1.46
3,B3,0.458
4,B4,0.338
5,B5,0.728
6,B6,0.101
